Measured values from several laboratories, pooled; numbers as filed in NIAID ChemDB.

Common to all: host cell toxicity; cell line: MDBK; read-out: CC50

Neighbouring rows are from separate reports. CCn: concentration that lowers growth or viability of the cells by n%.

structure	value
c1ccc(-c2ccc(Cn3ccc4nc(-c5ccccc5)nc-4c3)cc2)cc1	>46 µg/mL
C[C@H]1CC[C@H]2C(C)(C)[C@@H](O)CC[C@]23Oc2c(c(OCC(=O)O)cc4c2CNC4=O)C[C@]13C	>225 µM
CNC(=S)N=Nc1c(O)n(CN2CCOCC2)c2ccc([N+](=O)[O-])cc12	20 µg/mL
Fc1ccc(Cn2ccc3nc(-c4c(F)cccc4F)nc-3c2)cc1	70 µg/mL
C=CCNC(=S)N=Nc1c(O)[nH]c2ccc([N+](=O)[O-])cc12	>50 µg/mL
CN[C@H](CC(C)C)C(=O)N[C@H]1C(=O)N[C@@H](CC(N)=O)C(=O)N[C@H]2C(=O)N[C@H]3C(=O)N[C@H](C(=O)N[C@H](C(=O)C(=O)CNOCc4ccc(Cc5ccccc5)cc4)c4cc(O)cc(O)c4-c4cc3ccc4O)[C@H](O[C@H]3C[C@](C)(N)[C@@H](O)[C@H](C)O3)c3ccc(cc3)Oc3cc2cc(c3O[C@@H]2O[C@H](CO)[C@@H](O)[C@H](O)[C@H]2O[C@H]2C[C@](C)(N[NH2+][O-])[C@@H](O)[C@H](C)O2)Oc2ccc(cc2Cl)C1O	≥300 µM
NC(=O)c1nccn([C@@H]2O[C@H](CO)[C@@H](O)[C@H]2O)c1=O	2000 µM
O=[N+]([O-])c1ccc2[nH]c(O)c(N=NC(=S)Nc3ccccc3)c2c1	>50 µg/mL
C[C@H]1CC[C@H]2C(C)(C)[C@@H](O)CC[C@]23Oc2c(c(OCc4ccccc4)cc4c2CNC4=O)C[C@]13C	16 µM
CC1S/C(=N/N=C2\C(=O)Nc3ccc([N+](=O)[O-])cc32)N(c2ccc([N+](=O)[O-])cc2)C1=O	18 µg/mL
Clc1ccc(Cn2ccc3nc(-c4ccccc4)nc-3c2)s1	46 µg/mL
O=c1ccn([C@@H]2O[C@H](CO)[C@@H](O)[C@H]2F)c(=O)[nH]1	>100 µM
c1ccc(CCOn2ccc3nc(-c4ccccc4)nc-3c2)cc1	>100 µg/mL
CCCCCCCCCCCCCCCCCCCCCCC(=O)Nc1ccccc1C(=O)OCC	>100 µg/mL
c1ccc(CCCCn2ccc3nc(-c4ccccc4)nc-3c2)cc1	36 µg/mL
CC(=O)O[C@H]1CC[C@@]23Oc4c(c(O)c(Br)c5c4CNC5=O)C[C@]2(C)[C@@H](C)CC[C@H]3C1(C)C	19 µM
Fc1cccc(F)c1Cn1ccc2nc(-c3ccccc3)nc-2c1	46 µg/mL
Cn1c2cc(Cl)c(N)cc2c(=O)c2c(O)cc(O)cc21	>100 µg/mL
O=[N+]([O-])c1ccc2c(c1)c(N=NC(=S)Nc1ccc(Cl)cc1)c(O)n2CN1CCOCC1	17 µg/mL
CC(=O)O[C@H]1CC[C@@]23Oc4c(c(O)c(Cl)c5c4CNC5=O)C[C@]2(C)[C@@H](C)CC[C@H]3C1(C)C	20 µM
Ic1ccc(Cn2ccc3nc(-c4ccccc4)nc-3c2)cc1	9.4 µg/mL
COc1cc(O)c2c(=O)c3cc(N)c(Cl)cc3n(C)c2c1	5 µg/mL
C=CCN1C(=O)CS/C1=N/N=C1\C(=O)Nc2ccc([N+](=O)[O-])cc21	4 µg/mL
O=c1nc(NO)ccn1[C@@H]1O[C@H](CO)[C@@H](O)[C@H]1O	100 µM
O=C1Nc2ccc([N+](=O)[O-])cc2/C1=N/N=C1/SCC(=O)N1c1ccc(Br)cc1	5 µg/mL
FC(F)(F)c1cccc(-c2nc3ccn(Cc4ccc(Br)cc4)cc-3n2)c1	>100 µg/mL
Nc1ccn([C@@H]2O[C@H](CO)[C@@H](O)[C@H]2F)c(=O)n1	>100 µM
Cc1ccc(NC(=S)N=Nc2c(O)n(CN3CCOCC3)c3ccc([N+](=O)[O-])cc23)cc1	21 µg/mL

3 of the rows above, restated:

structure,value
O=c1nc(NO)ccn1[C@@H]1O[C@H](CO)[C@@H](O)[C@H]1O,100 µM
Cn1c2cc(Cl)c(N)cc2c(=O)c2c(O)cc(O)cc21,>100 µg/mL
Fc1ccc(Cn2ccc3nc(-c4c(F)cccc4F)nc-3c2)cc1,70 µg/mL